# Laboratory results as given in PubChem BioAssay AID1899 (The Scripps Research Institute Molecular Screening Center, 2009).
# Only a part is listed here, and it is no random draw. The source made the active and inactive calls.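 How the source made its calls: active means inhibition above the mean of all tested compounds plus 3 SD, set per screening campaign (cut at about 45% in these data); inactive means the rest.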
# System: HCV core protein (residues 1-106) dimerization
# Test: inhibitors of HCV core protein dimerization, primary screen, biochemical, TR-FRET, high-throughput (AID 1899)
# Details: TR-FRET GST/Flag-core106 dimerization, 1536-well; at 5 µM; hits give high values
# Outline: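 Assay system: tagged HCV core106 pair (GST and Flag); medium: KF-containing HEPES buffer, pH 7.45, DTT, CHAPS, BSA; also added: Eu donor and XL665 acceptor anti-tag antibodies; dosing: 5 µM single dose; timing: compound-protein-antibody incubation 4 h at 22.5 °C; signal: TR-FRET 671 and 617 nm emission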
row,Structure (SMILES),inhibition
1,N#CC1(Nc2ccccc2)CCN(CCc2ccccc2)CC1,inactive: -5.19%
2,CCN1CCC(Nc2ccc(Cl)cc2)CC1,inactive: 5.73%
3,O=C(NCC1(N2CCCCC2)CCCCC1)c1cccc([N+](=O)[O-])c1,inactive: -1.49%
4,O=C(NCC1(N2CCCCC2)CCCCC1)c1ccc(OC(F)F)cc1,inactive: -5.92%
5,COc1cc(C(=O)NCC2(N3CCCCC3)CCCCC2)ccc1OC(F)F,inactive: -1.52%
6,O=C(NCC1(N2CCOCC2)CCCCC1)c1cc(=O)[nH]c2ccccc12,inactive: 0.76%
7,CN1CCN(CCOC(=O)C(O)(c2ccccc2)c2ccccc2)CC1,inactive: -6.78%
8,COc1ccc(NC2CCN(C(=O)OC(C)(C)C)CC2)cc1,inactive: -7.41%
9,O=C(NCC1(N2CCCCC2)CCCCC1)c1cccc(C(F)(F)F)c1,inactive: 6.01%
10,COc1cc(OC)c(C(=O)NCC2(N(C)C)CCCCC2)cc1OC,inactive: 1.09%
11,CC(C)c1ccc(NC2CCN(C(=O)OC(C)(C)C)CC2)cc1,inactive: 0.19%
12,CN(C)c1cccc(C(=O)NCC2(N3CCCCC3)CCCCC2)c1,inactive: -2.16%
13,COc1ccc(CN(CCCl)CCCl)cc1Cl,inactive: -1.54%
14,CN1CCC(Nc2cccc(F)c2)CC1,inactive: 2.83%
15,CSc1ccccc1C(=O)NCC1(N2CCCCC2)CCCCC1,inactive: 14.7%
16,COc1ccc(C(=O)NCC2(N3CCCCC3)CCCCC2)c(OC)c1OC,inactive: -0.89%
17,CC(C)(C)OC(=O)N1CCC(N(C(=O)c2ccccc2)c2ccc(F)cc2)CC1,inactive: 8.31%
18,COc1ccc(C(=O)NCC2(N3CCCCC3)CCCCC2)cc1,inactive: -6.85%
19,O=C(NCC1(N2CCCCC2)CCCCC1)c1cccs1,inactive: 0.63%

row,Structure (SMILES),inhibition
1,O=C(NCC1(N2CCCCC2)CCCCC1)c1ccc(=O)[nH]c1,inactive: 2.68%
2,N#CC1(Nc2ccccc2)CCN(Cc2ccccc2)CC1,inactive: 1.34%
3,O=C(OC1CN2CCC1CC2)C1c2ccccc2Oc2ccccc21 (stereo unspecified),inactive: -1.35%
4,CCOC(=O)N1CCC(Nc2ccc(OC)cc2)CC1,inactive: -6.98%
5,Cc1cc(C)cc(N(C(=O)c2ccccc2)C2CCN(C(=O)OC(C)(C)C)CC2)c1,inactive: 11.5%
6,O=C(NCC1(N2CCCCC2)CCCCC1)c1ccc(Cl)nc1,inactive: -2.6%
7,O=C(NCC1(N2CCOCC2)CCCCC1)c1cc2ccccc2o1,inactive: 7.55%
8,COc1ccc(NC2CCN(CCc3ccccc3)CC2)c(OC)c1,inactive: -9.85%
9,O=C(NCC1(N2CCCCC2)CCCCC1)c1ccc(F)cc1,inactive: -0.67%
10,CCOc1ccc(C)cc1CN(CCCl)CCCl,inactive: -1.11%
11,Cc1ccc(OCC(C)C)c(CN(CCCl)CCCl)c1,inactive: 4.83%
12,CCOC(=O)N1CCC(Nc2cccc(C)c2)CC1,inactive: 12.8%
13,Fc1ccccc1NC1CCN(Cc2ccccc2)CC1,inactive: -5.17%
14,Cc1ccc(C(=O)NCC2(N3CCCCC3)CCCCC2)o1,inactive: 6.79%
15,COc1cc(OC)cc(C(=O)NCC2(N3CCCCC3)CCCCC2)c1,inactive: -2.36%
16,CN(C)c1ccc(C(=O)NCC2(N3CCCCC3)CCCCC2)cc1,inactive: 1.11%
17,CCN1CCC(Nc2cccc(F)c2)CC1,inactive: -13.4%
18,O=C(O)C1(Nc2ccccc2)CCN(Cc2ccccc2)CC1,inactive: 4.99%
19,CC(C)(C)OC(=O)N1CCC(Nc2ccccc2)CC1,inactive: 0.33%

row,Structure (SMILES),inhibition
1,CCCOc1ccc(C(=O)NCC2(N(C)C)CCCCC2)cc1,inactive: -3.61%
2,CN1CCC(Nc2ccc(F)c(Cl)c2)CC1,inactive: -6.32%
3,CCOc1ncccc1C(=O)NCC1(N2CCOCC2)CCCCC1,inactive: -2.18%
4,CN1CCC(Nc2ccc(Cl)cc2)CC1,inactive: 9.74%
5,CCCOc1ccc(C)cc1CN(CCCl)CCCl,inactive: 0.99%
6,COc1cc(OC)cc(C(=O)NCC2(N3CCOCC3)CCCCC2)c1,inactive: 6.12%
7,COc1cccc(C(=O)N(c2cc(C)cc(C)c2)C2CCN(C(=O)OC(C)(C)C)CC2)c1,inactive: 11.7%
8,CCC(CO)(C(=O)OC1CN2CCC1CC2)c1ccccc1 (stereo unspecified),inactive: -5.58%
9,COc1ccc(C(=O)NCC2(N3CCOCC3)CCCCC2)cc1OC,inactive: -0.16%
10,CCc1cc(C(=O)NCC2(N3CCCCC3)CCCCC2)sc1C,inactive: -2.32%
11,O=C(OC1CN2CCC1CC2)C1c2ccccc2C=Cc2ccccc21 (stereo unspecified),inactive: 1.48%
12,CCOC(=O)N1CCC(Nc2ccc(C)cc2)CC1,inactive: 8.01%
13,N/C(=N\O)c1c(N)no[n+]1[O-],inactive: -6.11%
14,N#Cc1ccc(C(=O)NCC2(N3CCCCC3)CCCCC2)cc1,inactive: 11.8%
15,CC(C)(C)OC(=O)N1CCC(N(C(=O)c2ccccc2)c2ccc(Cl)cc2)CC1,inactive: 8.27%
16,CN(C)C1(CNC(=O)c2cccc(C#N)c2)CCCCC1,inactive: 1.24%
17,CCCN1CCC(Nc2cc(OC)cc(OC)c2)CC1,inactive: -2.2%
18,c1ccc(CN2CCC(Nc3ccccc3)CC2)cc1,inactive: -8.18%
